Measured values from several laboratories, pooled; numbers as filed in NIAID ChemDB.

All rows: tests in culture; organism: HIV-1; read by: β-galactosidase; endpoint: EC50

ECn: concentration that inhibits the pathogen or its effect by n%.

compound | changes | strain | setting | cells | value
O=C1NC(=NCCc2ccc(F)cc2)S/C1=C\c1ccc(-c2ccc(C(=O)O)c(O)c2)o1 | - | - | pseudotyped | TZM-bl | 5.6 µM
Cc1cc(S(N)(=O)=O)ccc1NC(=O)COc1ccc(Cl)cc1C(=O)c1cccc(C#N)c1 | RT-V106I | HXB2 | - | HeLa + HELA CD4+ | <0.01 µM
O=C(Nc1ncnc2c1ncn2[C@@H]1O[C@H](CO)[C@@H](OC(=O)c2ccccc2)[C@H]1OC(=O)c1ccccc1)c1ccccc1 | - | NL4-3 | - | HeLaP4 | 1–2 µM
CCCCCCCCCc1ccc(OCCOCCOCCOCCOCCOCCOCCOCCOCCO)cc1 | - | IIIB | - | HeLa | 81 µM
O=C1NC(=Nc2ccc(Cl)c(F)c2)S/C1=C\c1ccc(-c2ccc(C(=O)O)c(O)c2)o1 | - | NL4-3 | - | TZM-bl | 1.8 µM
O=C(O)[C@@H](C1CCCCC1)N1C[C@H](CN2CCC(c3cnc(-c4ccccc4)[nH]3)CC2)[C@@H](c2ccccc2)C1 | - | - | - | MAGI | <0.033 µM
NCCN=C(N)NC(N)=[NH+]CCCCCC[NH+]=C(N)NC(N)=NCCN=C(N)NC12CC3CC(CC(C3)C1)C2 | - | IIIB | - | HeLa | 119 µM
O=S(=O)(O)c1ccc(-c2c3nc(c(-c4ccc(S(=O)(=O)O)cc4)c4ccc([n-]4)c(-c4ccc(S(=O)(=O)O)cc4)c4nc(c(-c5ccc(S(=O)(=O)O)cc5)c5ccc2[n-]5)C=C4)C=C3)cc1.[Gd+3] | - | IIIB | - | MAGI | <50 µg/mL
O=S(=O)(O)c1ccc(-c2c3nc(c(-c4ccc(S(=O)(=O)O)cc4)c4ccc([nH]4)c(-c4ccc(S(=O)(=O)O)cc4)c4nc(c(-c5ccccc5)c5ccc2[nH]5)C=C4)C=C3)cc1 | - | IIIB | - | MAGI | 0.5 µg/mL
Nc1nccc2c1ncn2[C@@H]1C[C@H](CO)[C@@H](O)[C@H]1O | - | - | - | HeLa CD4+/TAT+ + HeLa | 7.4 µM
CC(C)c1ccc(CS(=O)(=O)c2cccc[n+]2[O-])cc1 | - | IIIB | - | MAGI | 4 µg/mL
N#C[C@]1(CO)O[C@@H](n2cnc3c(N)ncnc32)C[C@@H]1O | RT-M184V | 3TC-resistant (RT M184V) | - | MAGI | 2.28 µM
Cc1cc(S(N)(=O)=O)ccc1NC(=O)COc1ccc(Cl)cc1C(=O)c1cc(C#N)cc(C#N)c1 | RT-Y181C | HXB2 | - | HeLa + HELA CD4+ | <0.01 µM
Cc1cc(C#N)cc(C(=O)c2ccccc2OCC(=O)Nc2ccc(S(N)(=O)=O)cc2C)c1 | - | WT | - | HeLa MAGI + HeLa | ~0.0005 µM
N#CC(N)=NCCCC[NH+]=C(N)NC(N)=NCCCCN=C(N)NC(N)=[NH+]CCCCN.[Cl-].[Cl-] | - | IIIB | - | HeLa | 76.8 µM
Cc1cc2cn[nH]c2cc1NC(=O)COc1ccc(Cl)cc1C(=O)c1cccc(C#N)c1 | RT-K101E | HXB2 | - | HeLa + HELA CD4+ | <0.01 µM
N#CC(N)=NCCCCN=C(N)NC(N)=[NH+]CCCCCC[NH+]=C(N)NC(N)=NCCN.[Cl-].[Cl-] | - | IIIB | - | HeLa | 56.6 µM
Cc1cc(C#N)cc(C(=O)c2cc(Cl)ccc2OCC(=O)Nc2ccc(OCCCN3CC=CC3)cc2C)c1 | RT-V106I | HXB2 | - | HeLa + HELA CD4+ | <0.01 µM
Cc1cc(C)c(CS(=O)c2cccc[n+]2[O-])c(C)c1 | - | IIIB | - | MAGI | 6 µg/mL
N#C[C@]1(CO)O[C@@H](n2cnc3c(=O)[nH]cnc32)C[C@@H]1O | - | HXB2 | - | MAGI | 0.242 µM
O=C1NC(=NCc2ccc(F)cc2)S/C1=C\c1ccc(-c2ccc(C(=O)O)c(O)c2)o1 | - | AD8 | - | TZM-bl | 1 µM
Nc1nccc2c1ncn2[C@@H]1C=C(CO)[C@@H](O)[C@H]1O | - | - | - | HeLa CD4+/TAT+ + HeLa | 0.41 µM
CCc1ccc(CCN=C2NC(=O)/C(=C/c3ccc(-c4ccc(C(=O)O)c(O)c4)o3)S2)cc1 | - | - | pseudotyped | TZM-bl | 5 µM
Nc1ccn([C@H]2CC[C@@H](CO)O2)c(=O)n1 | V37A V59I S100K S115N R138S D139N A310T | NL4-3 | - | - | 0.399 µM
O=S(=O)(O)c1ccc(-c2c3nc(c(-c4ccc(S(=O)(=O)O)cc4)c4ccc([nH]4)c(-c4ccc(S(=O)(=O)O)cc4)c4nc(c(-c5ccccc5)c5ccc2[nH]5)C=C4)C=C3)cc1 | - | IIIB | - | MAGI | 0.5 µg/mL
O=C(O)[C@@H](C1CCCCC1)N1C[C@H](CN2CCC(c3cnc(Cc4ccccc4)s3)CC2)[C@@H](c2ccccc2)C1 | - | - | - | MAGI | <0.00014 µM
CCc1cc(C#N)cc(C(=O)c2cc(Cl)ccc2OCC(=O)Nc2ccc(S(N)(=O)=O)cc2C)c1 | RT-G190A | HXB2 | - | HeLa + HELA CD4+ | <0.01 µM
O=C(O)[C@@H](C1CCCCC1)N1C[C@H](CN2CCC(c3ncc(Cc4ccccc4)s3)CC2)[C@@H](c2ccccc2)C1 | - | - | - | MAGI | <0.033 µM
CC[C@@H](O)C1=C[C@@H](n2cnc3c(N)ncnc32)[C@H](O)[C@@H]1O | - | - | - | HeLa CD4+/TAT+ + HeLa | 4.6 µM
N=C1Sc2ccccc2C2=NCCCN12 | - | 92HT599 | - | PBMC | 0.55 µM
Cc1cc(S(N)(=O)=O)ccc1NC(=O)COc1ccc(Cl)cc1C(=O)c1cc(F)cc(C(F)(F)F)c1 | K103N | - | 25% human serum | HELA MAGI | 5.8 µM
CC(O)CCCCCC(CCCCCCCCCCCCCC1CC(=O)OC[C@H]2O[C@@H](OC(CCCCCCCCCCCC(CCCCCC(C)O)O[C@@H]3O[C@H](CO)[C@@H](O)[C@H](O)[C@H]3O)CC(=O)OC[C@@H]3O[C@H](O1)[C@@H](O)[C@H](O)[C@H]3O)[C@H](O)[C@@H](O)[C@@H]2O)O[C@@H]1O[C@H](CO)[C@@H](O)[C@H](O)[C@H]1O | - | JR-FL | - | MAGI (CCR5) + MAGI | 3.5 µg/mL
O=S(=O)(O)c1ccc(-c2c3nc(c(-c4ccc(S(=O)(=O)O)cc4)c4ccc([n-]4)c(-c4ccc(S(=O)(=O)O)cc4)c4nc(c(-c5ccc(S(=O)(=O)O)cc5)c5ccc2[n-]5)C=C4)C=C3)cc1.[Gd+3] | - | IIIB | - | MAGI | <50 µg/mL
Cc1cc(OCCCS(N)(=O)=O)ccc1NC(=O)COc1ccc(Cl)cc1C(=O)c1cc(F)cc(C(F)(F)F)c1 | RT-L100I | HXB2 | - | HeLa + HELA CD4+ | <0.01 µM
Cc1c(OCC2CCC2)c2cc(F)ccc2[nH]c1=O | RT-K103N | NNRTI-resistant (RT K103N) | - | HeLa + HeLa-MAGI | >2 µM

Two numbers with a dash give a range or band. Conditions beyond the fields shown may differ between rows. Blank or dashed fields: not listed here.